Measured values from several laboratories, pooled; numbers as filed in NIAID ChemDB.

Common to all: whole-cell or culture tests; organism: Herpes simplex virus 2

Blank or dashed fields: not listed here. Neighbouring rows are from separate reports. Inhibition is in % at the dose shown (toxicity tests: loss of growth or viability).

SMILES | strain or isolate | cells | read by | read-out | dose | value
Nc1nc2c(ncn2COCCOC(=O)CNC(=O)[C@@H](N)Cc2ccccc2)c(=O)[nH]1 | 196 | - | - | MIC | - | 0.48 µM
COc1c2c(cc3ccoc13)C(=O)[C@@]1(O)c3cc4c(cc3OC[C@H]1O2)OCO4 | 186 | VERO | plaque count | inhibition | 50 µg/mL | 56.3%
CCOC(=O)P(=O)(O)OC[C@H]1O[C@@H](n2cc(CCCl)c(=O)[nH]c2=O)C[C@@H]1O | TK- | VERO | cytopathic effect | inhibition | 234 µM | >25%
COC(=O)C1(C)CCC[C@]2(C)c3cc(OC)c(C=O)cc3CC[C@@H]12 | - | VERO | plaque count | inhibition | 100 µM | 100%
CC(C)[C@H](NC(=O)[C@H](C)N)C(=O)OCCOCn1cnc2c(=O)[nH]c(N)nc21 | 196 | - | - | MIC | - | 1.3 µM
COc1cc2c(cc1-c1cc3cc4ccoc4cc3oc1=O)OCO2 | 186 | VERO | plaque count | inhibition | 50 µg/mL | 23.7%
O=C(O)CP(=O)(O)O | K979 | VERO | cytopathic effect | inhibition | 71.4 µM | >25%
O=C(O)P(=O)(O)O | B4327UR | SIRC | plaque count | inhibition | 100 µM | 96%
NCC(=O)N[C@@H](Cc1ccccc1)C(=O)OCCOCn1cnc2c(=O)[nH]c(N)nc21 | 196 | - | - | MIC | - | 4.5 µM
COP(=O)(CC(=O)OC[C@H]1O[C@@H](n2cc(I)c(=O)[nH]c2=O)C[C@@H]1O)OC | K979 | VERO | cytopathic effect | inhibition | 5.9 µM | >25%
O=c1[nH]c(=O)n([C@H]2C[C@H](O)[C@@H](CO)O2)cc1/C=C/Br | 196 | - | - | MIC | - | >1000 µM
O=C(O)P(=O)(O)O | TK- | VERO | cytopathic effect | inhibition | 79.4 µM | >25%
O=C1c2cc3ccoc3cc2O[C@@H]2COc3cc4c(cc3[C@]12O)OCO4 | 186 | VERO | plaque count | inhibition | 50 µg/mL | 42.5%
CCOC(=O)P(=O)(OC)OC[C@H]1O[C@@H](n2cc(CCCl)c(=O)[nH]c2=O)C[C@@H]1O | K979 | VERO | cytopathic effect | inhibition | 227 µM | >25%
C[C@H](NC(=O)CN)C(=O)OCCOCn1cnc2c(=O)[nH]c(N)nc21 | 196 | - | - | MIC | - | 0.96 µM

For reference, 2 entries again:

SMILES	strain or isolate	cells	read by	read-out	dose	value
C[C@H](NC(=O)CN)C(=O)OCCOCn1cnc2c(=O)[nH]c(N)nc21	196	-	-	MIC	-	0.96 µM
COc1cc2c(cc1-c1cc3cc4ccoc4cc3oc1=O)OCO2	186	VERO	plaque count	inhibition	50 µg/mL	23.7%